Tested on: Hek293 / PMBC versus S. aureus 2, MRSA in vivo
Assay: Selectivity index (LD50 Hek293/PMBC divided by MIC S. aureus 2)
Format: cell-based
Details: lower LD50 of Hek293 and PMBC (converted to μg/mL) divided by MIC against S. aureus 2, MRSA in vivo

Structure (SMILES) | SI (Selectivity index)
CCCCCCCCCCCCC/C(O)=C1\C(=O)[C@@H]2CCCC(=O)N2C1=O [22b] | 8.6
CCCCCCCC=CC(=O)N1C(=O)C(=C(C)O)C(=O)C1CC(C)C (stereo not shown) [23a] | 4.0
CCCCCCCC=CC(=O)N1C(=O)C(=C(O)CCC)C(=O)C1CC(C)C (stereo not shown) [23b] | 137
CCCCCCCC=CC(=O)N1C(=O)C(=C(O)CCCCC)C(=O)C1CC(C)C (stereo not shown) [23c] | 25
CCCCCCCCCCCC(O)=C1C(=O)C(CCSC)N(C(C)=O)C1=O (stereo not shown) [24b] | 12
CCCCCCCC(O)=C1C(=O)C(CCSC)N(C(=O)C2CCCCC2)C1=O (stereo not shown) [24e] | >75
CCCCCC(O)=C1C(=O)C(CCSC)N(C(=O)CC(C)CC(C)(C)C)C1=O (stereo not shown) [24i] | <8.3
CCCCCCCC(O)=C1C(=O)C(CCSC)N(C(=O)CC(C)CC(C)(C)C)C1=O (stereo not shown) [24j] | <8.9
CCCCCCCCCC(O)=C1C(=O)C(CCSC)N(C(=O)CC(C)CC(C)(C)C)C1=O (stereo not shown) [24k] | <9.5
CCCCCCCCCC(O)=C1C(=O)C(CCSC)N(C(=O)Cc2cccs2)C1=O (stereo not shown) [24m] | 6.9
CCCCCCCCCC(O)=C1C(=O)CCN(C(=O)c2ccccc2)C1=O [25a] | >8.4
CCCCCCCCCCCC(O)=C1C(=O)CCN(C(=O)c2ccccc2)C1=O [25b] | >73
CCCCCCCCCC(O)=C1C(=O)CCN(C(=O)c2ccc(OC)cc2)C1=O [25d] | 9.1
CCCCCCC(=O)N1CC(=O)C(=C(O)CC2CC3CCC2C3)C1=O (stereo not shown) [27a] | 16
CCCCCCC(=O)N1CC(=O)C(=C(O)CCCC2CCCCC2)C1=O [27c] | 11
CCCCCCC(=O)N1CC(=O)C(=C(O)CC(C)CC(C)(C)C)C1=O (stereo not shown) [27h] | 21
CCCCCCC(=O)N1CC(=O)C(=C(O)CC23CC4CC(CC(C4)C2)C3)C1=O [27i] | <16
CCCC(=O)N1CC(=O)C(=C(O)CC23CC4CC(C)(CC(C)(C4)C2)C3)C1=O [27k] | 5.7
CCCCCCC(=O)N1CC(=O)C(=C(O)CCCOc2ccc(Cl)cc2C)C1=O [28h] | 6.4
CC(C)CC1C(=O)C(=C(O)CCCCCc2ccccc2)C(=O)N1C(=O)c1ccccc1 (stereo not shown) [30a] | 19
CSCCC1C(=O)C(=C(O)CC23CC4CC(C)(CC(C)(C4)C2)C3)C(=O)N1C(C)=O (stereo not shown) [31e] | 3.2
CSCCC1C(=O)C(=C(O)CC23CC4CC(CC(C4)C2)C3)C(=O)N1C(=O)C1CCCCC1 (stereo not shown) [31f] | 21

— patent US9765069B2, “Antimicrobial compounds” (OXFORD UNIVERSITY INNOVATION LIMITED, priority 2012, dated 2017)
